Anti-infective test results gathered from many reports (values: NIAID ChemDB through PubChem).

Shared fields: whole-cell or culture tests; agent: Mycobacterium tuberculosis

Conditions beyond the fields shown may differ between rows. MIC bound comes from a single tested concentration. A number after MIC or MFC names an inhibition level or a share of isolates. ECn: concentration that inhibits the pathogen or its effect by n%. Percent inhibition refers to the dose given; in toxicity tests it is the harm to the cells. a–b is a range or a potency band. Blank or dashed fields: not listed here.

compound	strain	mutations	cell line	read by	measure	dose	value
CCOC(=O)c1c(N)sc2c1CCN(CC)C2	H37Rv	-	-	resazurin	MIC	-	>100 µg/mL
CC(=O)c1ccc(-c2cn(Cc3cccc(Cl)c3)nn2)cc1	Wild type without biotin	-	-	turbidity	MIC50	-	>50 µM
Cc1cc([N+](=O)[O-])c2ncccc2c1	M 607	-	-	-	MIC50	-	>25 µg/mL
CC(O)C1(O)C(O)CC(OC2c3cc4c(c(O)c3[C@@H]3C[C@@]2(C)OC32C=c3cc[nH]c3=N2)C(=O)c2cccc(O)c2C4=O)OC1C	PZA-R	-	-	-	MIC	-	0.8 µg/mL
Oc1cccc2cccnc12	H37Rv	-	-	-	MIC50	-	>10 µg/mL
CCOC(=O)c1cc(=O)c2cc(CC)c(OCc3ccccc3)cc2o1	H37Rv	-	-	BACTEC	MIC bound	-	≤12.5 µg/mL
CC1=C(C(=O)Nc2ccc(C)cc2)C(c2ccc(O)cc2)NC(=O)N1c1ccc(F)c(Cl)c1	H37Rv	-	-	resazurin	MIC	-	>6.25 µg/mL
COc1cc(/C=N/N=c2/scc(-c3cc4cc(Br)ccc4oc3=O)n2C2CCCCC2)ccc1O	H37Rv	-	-	-	MIC	-	>6.25 µg/mL
CCN1CCc2c(sc(NC(=O)c3c(F)c(F)c(F)c(F)c3F)c2C(=O)NC)C1	H37Rv	gyrA mutant (D94N)	-	turbidity	MIC	-	3.8 µM
CCOC(=O)C1=C(C)N(c2ccc(F)c(Cl)c2)C(=O)NC1c1ccc(OC)c(OC)c1	H37Rv	-	-	resazurin	MIC	-	>6.25 µg/mL
CCNC(=O)c1c(NC(=O)c2c(F)c(F)c(F)c(F)c2F)sc2c1CCN(CC)C2	ATCC35838	-	-	turbidity	MIC	-	9.2 µM
Fc1ccc(/C(Cn2ccnc2)=N/OCc2cccc3ccccc23)cc1	CIP103471	-	-	-	MIC	-	8 µg/mL
CC1=C(C(=O)Nc2ccc(C)cc2)C(c2cccc([N+](=O)[O-])c2)NC(=O)N1c1ccc(F)c(Cl)c1	H37Rv	-	-	resazurin	MIC	-	>6.25 µg/mL
CCCCC/C(CC1NC(=S)NC1=O)=N\NC(=O)c1ccncc1	H37Rv	KatG G285V	-	visual reading / absorbance	MIC	-	3.1 µM
O=C1NC(NNC(=O)c2ccncc2)=N/C1=C\c1cccc(Cl)c1	Ciprofloxacin-resistant	-	-	-	MIC	-	≤0.39 µg/mL
[N-]=[N+]=NC(CBr)c1cn(COC(CO)CO)c(=O)[nH]c1=O	H37Ra	-	-	-	EC50	-	>100 µg/mL
CC(C)(O)[C@H]1CC[C@]2(C)[C@H]3CC[C@@H]4[C@@]5(C)CCCC(C)(C)[C@@H]5[C@@H](O)C[C@@]4(C)[C@]3(C)CC[C@@H]12	H37Rv	-	-	-	MIC	-	8 µM
Clc1ccc(/C(Cn2ccnc2)=N/OCc2cccc3ccccc23)cc1	CIP103471	-	-	-	MIC	-	8 µg/mL
Cn1c(N)c(N=Nc2ccc(S(=O)(=O)Nc3ccccn3)cc2)c(=O)n(C)c1=O	H37Rv	-	-	BACTEC	MIC bound	-	>12.5 µg/mL
NNC(=O)c1ccncc1	MDR	-	-	resazurin	MIC	-	25–50 µg/mL
CCn1c(SCC(=O)N/N=C/c2ccc(OC)cc2)nnc1-c1ccco1	H37Rv	-	-	-	EC50	-	>6.25 µg/mL
N#Cc1c(NC(=O)c2c(F)c(F)c(F)c(F)c2F)sc2c1CCOC2	H37Rv	katG Y155 truncation mutant	-	turbidity	MIC	-	16 µM
N#CCC(=O)N/N=C1\C(=O)N(c2ccc(Cl)cc2)C(=O)C(=O)C1c1nc2ccccc2s1	H37Rv	-	-	BACTEC	MIC bound	-	>12.5 µg/mL
C[C@@H]1CC[C@]2(C(=O)O)CC[C@]3(C)C(=CC[C@@H]4[C@@]5(C)C[C@@H](O)[C@@H](O)C(C)(C)[C@@H]5CC[C@]43C)[C@@H]2[C@]1(C)O	H37Rv	-	-	-	MIC	-	128 µM
CO[C@H](C(=O)[C@@H](O)[C@@H](C)O)[C@@H]1Cc2cc3cc(O[C@H]4C[C@@H](O[C@H]5C[C@@H](O)[C@H](O)[C@@H](C)O5)[C@@H](O)[C@@H](C)O4)c(C)c(O)c3c(O)c2C(=O)[C@H]1O[C@H]1C[C@@H](O[C@H]2C[C@@H](O[C@H]3C[C@](C)(O)[C@H](O)[C@@H](C)O3)[C@H](O)[C@@H](C)O2)[C@H](O)[C@@H](C)O1	H37Rv	-	-	BACTEC	MIC bound	-	>12.5 µg/mL
O=C(N/N=C(\c1nc2ccc([N+](=O)[O-])cc2[nH]c1=O)C(O)c1ccc([N+](=O)[O-])cc1)c1ccncc1	-	inhA 15C to T	-	visual reading / absorbance	MIC	-	25 µM
Clc1ccc(/C(Cn2ccnc2)=N/OCc2ccccc2)cc1	CIP103471	-	-	-	MIC	-	0.5 µg/mL
O=C(NN1C(=O)CS(=O)(=O)C1c1ccc(C(F)(F)F)cc1)c1ccncc1	-	KatG G285V	-	visual reading / absorbance	MIC	-	50 µM
C=Cc1cn(COCCO)c(=O)[nH]c1=O	H37Ra	-	-	-	EC50	-	>100 µg/mL
Fc1ccc(/C(Cn2ccnc2)=N\OCc2cccc3ccccc23)cc1	CIP103471	-	-	-	MIC	-	8 µg/mL
CCOC(=O)C1=C(C)N(c2ccc(F)c(Cl)c2)C(=O)NC1c1ccccc1Cl	H37Rv	-	-	resazurin	MIC	-	>6.25 µg/mL
Cc1cc2oc(=O)c3c(c2c(O)c1CN1CCOCC1)CCCC3	H37Rv	-	-	BACTEC	MIC bound	-	>12.5 µg/mL
Cc1ccc(/C=N/N=c2/scc(-c3cc4cc(Br)ccc4oc3=O)n2C2CCCCC2)cc1	H37Rv	-	-	-	EC50	-	>6.25 µg/mL
Cc1cccc(/C=N/Nc2ccc3ccccc3n2)n1	H37Rv	-	-	BACTEC	MIC bound	-	>12.5 µg/mL
NNC(=O)c1ccncc1	H37Rv	-	-	visual reading / absorbance	MIC	-	0.1 µM
Cc1ccc(/C=N/N=c2/scc(-c3cc4ccccc4oc3=O)n2C2CCCCC2)cc1	H37Rv	-	-	-	EC50	-	>6.25 µg/mL
CCn1c(SCC(=O)N/N=C/c2cc(O)ccc2Br)nnc1-c1ccco1	H37Rv	-	-	-	inhibition	6.25 µg/mL	6%
CCOC(=O)c1c(NC(=O)c2c(F)c(F)c(F)c(F)c2F)sc2c1CCNC2=O	H37Rv	rpoB S522L mutant	-	turbidity	EC90	-	1.6 µM
O=c1oc2ccc(Br)cc2cc1-c1cs/c(=N/N=C/c2ccc(Cl)c(Cl)c2)n1C1CCCCC1	H37Rv	-	-	-	MIC	-	>6.25 µg/mL
Fc1ccc(/C(Cn2ccnc2)=N\OC/C=C/c2ccccc2)cc1	CIP103471	-	-	-	MIC	-	8 µg/mL
Cc1ccc(NC(=O)OCCN(C)C)cc1Cl	H37Rv	-	-	BACTEC	MIC bound	-	>12.5 µg/mL
Clc1ccc(/C(Cn2ccnc2)=N\OCc2ccc(-c3ccccc3)cc2)cc1	CIP103471	-	-	-	MIC	-	8 µg/mL
CC1=C(C(=O)Nc2ccc(C)cc2)C(c2ccccc2[N+](=O)[O-])NC(=O)N1c1ccc(F)c(Cl)c1	H37Rv	-	-	resazurin	MIC	-	>6.25 µg/mL
CCOC(=O)CSc1nnc(-c2ccco2)n1CC	H37Rv	-	-	-	MIC	-	>6.25 µg/mL
OCCNCCNC(=S)NCCNCCO	H37Rv	-	-	-	MIC bound	-	>6.25 µg/mL
CC(=O)Nc1ccc(/C=N/NC(N)=S)cc1F	H37Rv	Isoniazid-resistant	-	resazurin	MIC90	-	<0.1 µg/mL
C=C(C)[C@@H]1CC[C@]2(C)CCC3(C)[C@H](CC[C@@H]4[C@@]5(C)CC[C@H](O)C(C)(C)[C@@H]5CC[C@]43C)[C@@H]12	H37Rv	-	-	-	MIC	-	64 µM
[N-]=[N+]=NC(CBr)c1cn(COCCO)c(=O)[nH]c1=O	H37Ra	-	-	-	EC50	-	10 µg/mL
CC(C)CC1=C(N(C)C)C(=O)C=C(N(C)C)C1=O	H37Rv	-	-	BACTEC	inhibition	128 µg/mL	51%
CC(C)=CCCC(C)CCO	H37Rv	-	-	-	MIC	-	64 µg/mL
CC1CCCN(C(=S)S)C1.CC1CCCNC1	INH-r	-	-	-	MIC	-	0.8 µg/mL
CO[C@H]1/C=C/O[C@@]2(C)Oc3c(C)c(O)c4c(O)c(c5c(c4c3C2=O)NC2(CCN(CC(C)C)CC2)N=5)=NC(=O)/C(C)=C\C=C\[C@H](C)[C@H](O)[C@@H](C)[C@@H](O)[C@@H](C)[C@H](OC(C)=O)[C@@H]1C	H37RV-PLN-SIG	-	-	-	MIC	-	≤0.015 µg/mL
O=C(O)c1cccc(S(=O)(=O)NN2C(=O)CSC2c2ccccc2Cl)c1	H37Rv	-	-	BACTEC	inhibition	12.5 µg/mL	0%
O=C1NC(NNC(=O)c2ccncc2)=N/C1=C\c1ccccc1Cl	Rifampicin-resistant	-	-	-	MBC	-	1.56 µg/mL
CC(C)=CC1C(C(=O)NNC(=O)C2C(C=C(C)C)C2(C)C)C1(C)C	H37Rv	-	-	resazurin	MIC bound	-	>6.25 µg/mL
O=C1NC(NNC(=O)c2ccncc2)=N/C1=C\c1ccc(Cl)cc1	ATCC 35822 (isoniazid-resistant)	-	-	-	MIC	-	100 µg/mL
Cc1c(O)c(=O)ccn1CCO	H37Rv	-	-	BACTEC	MIC	-	≥12.5 µg/mL
CC(C)[C@@H](C)/C=C/[C@@H](C)[C@H]1CCC2[C@@]34C=C[C@]5(C[C@@H](O)CC[C@]5(C)C3CC[C@@]21C)OO4	H37Rv	-	-	-	MIC	-	1 µg/mL
CN(C)CCCN1c2ccccc2Sc2ccc(Cl)cc21	Isolate C drug-resistant	-	-	-	MBC	-	40 µg/mL
O=C1NC(=Nc2ccc(Cl)cc2Cl)N/C1=C\c1ccc(Cl)cc1Cl	H37Rv	-	VERO	-	inhibition	12.5 µg/mL	96%
CO[C@@]12[C@H](COC(N)=O)C3=C(C(=O)C(C)=C(N)C3=O)N1C[C@H]1[C@@H]2N1C	EMB-R	-	-	-	MIC	-	0.8 µg/mL
CC(=O)c1ccc(N2CCN(C(=O)c3cccc(Cl)c3)CC2)cc1	Wild type without biotin	-	-	turbidity	MIC90	-	48.8 µM
O=C(O)CCc1ccc(O)c2ncccc12	M 607	-	-	-	MIC50	-	1–5 µg/mL
CCN1CCc2c(sc(N)c2C(=O)Nc2ccccc2)C1	H37Rv	-	-	resazurin	MIC	-	>100 µg/mL
NNOC(=O)c1ccc2cccnc2c1O	M 607	-	-	-	MIC50	-	>25 µg/mL
CCOC(=O)C1=C(C)N(c2ccc(F)c(Cl)c2)C(=O)NC1c1ccc(OC)cc1	H37Rv	-	-	resazurin	MIC	-	>6.25 µg/mL
CN(C)c1ccc(/C=N/NC(=S)Nc2ccccc2)c(Cl)c1	H37Rv	-	-	BACTEC	MIC bound	-	>12.5 µg/mL
CC(=O)c1ccc(N2CCC(C(=O)c3ccc4c(c3)OCO4)CC2)cc1	BioA overexpression strain	-	-	turbidity	MIC50	-	>50 µM
CC(=O)Oc1ccn2nc(C)c(Br)c2c1Br	H37Rv	-	-	resazurin	MIC bound	-	>6.25 µg/mL
Nc1cn(COCCO)c(=O)[nH]c1=O	H37Ra	-	-	-	EC50	-	>100 µg/mL
CCn1c(SCC(=O)N/N=C/c2cccc(OC)c2)nnc1-c1ccco1	H37Rv	-	-	-	inhibition	6.25 µg/mL	23%
Fc1ccc(/C(Cn2ccnc2)=N\OCc2ccc(-c3ccccc3)cc2)cc1	CIP103471	-	-	-	MIC	-	8 µg/mL
CC(=O)c1ccc(N2CCN(C(=O)c3ccc4c(c3)OCCO4)CC2)cc1	Wild type without biotin	-	-	turbidity	MIC50	-	>50 µM
COc1c(O)cc2c(c1O)[C@@H]1O[C@H](CO)[C@@H](O)[C@H](O)[C@H]1OC2=O	H37Rv	-	-	BACTEC	inhibition	12.5 µg/mL	23%
Cc1noc(-c2ccc(N3CCN(C(=O)c4cccc(Cl)c4)CC3)cc2)n1	BioA underexpression strain	-	-	turbidity	MIC50	-	>50 µM
CCOC(=O)c1c(NC(=O)c2c(F)c(F)c(F)c(F)c2F)sc2c1CCOC2	H37Rv	gyrA mutant (D94N)	-	turbidity	EC90	-	0.35 µM
O=C(O)CSc1nc2cc(Cl)c(Cl)cc2[nH]1	-	-	-	resazurin	inhibition	6.25 µg/mL	14%
O=C(O)CCCc1ccc(O)c2ncccc12	M 607	-	-	-	MIC50	-	1 µg/mL
CCN1CCc2c(sc(NC(=O)c3c(F)c(F)c(F)c(F)c3F)c2C#N)C1	ATCC35838	-	-	turbidity	MIC	-	13 µM
O=C(CCCCC(=O)Nc1cc(C2=NCCN2)cc(C2N=CCN2)c1)Nc1cc(C2=NCCN2)cc(C2=NCCN2)c1	H37Rv	-	-	resazurin	inhibition	6.25 µg/mL	61%
C[C@@H]1CCC([C@@H](C)C(=O)OCCO)[C@@]23OO[C@@](C)(CCC12)O3	H37Rv	-	-	agar	MIC	-	>12.5 µg/mL

The last 9 rows once more:

compound | strain | mutations | cell line | read by | measure | dose | value
CC(=O)c1ccc(N2CCN(C(=O)c3ccc4c(c3)OCCO4)CC2)cc1 | Wild type without biotin | - | - | turbidity | MIC50 | - | >50 µM
COc1c(O)cc2c(c1O)[C@@H]1O[C@H](CO)[C@@H](O)[C@H](O)[C@H]1OC2=O | H37Rv | - | - | BACTEC | inhibition | 12.5 µg/mL | 23%
Cc1noc(-c2ccc(N3CCN(C(=O)c4cccc(Cl)c4)CC3)cc2)n1 | BioA underexpression strain | - | - | turbidity | MIC50 | - | >50 µM
CCOC(=O)c1c(NC(=O)c2c(F)c(F)c(F)c(F)c2F)sc2c1CCOC2 | H37Rv | gyrA mutant (D94N) | - | turbidity | EC90 | - | 0.35 µM
O=C(O)CSc1nc2cc(Cl)c(Cl)cc2[nH]1 | - | - | - | resazurin | inhibition | 6.25 µg/mL | 14%
O=C(O)CCCc1ccc(O)c2ncccc12 | M 607 | - | - | - | MIC50 | - | 1 µg/mL
CCN1CCc2c(sc(NC(=O)c3c(F)c(F)c(F)c(F)c3F)c2C#N)C1 | ATCC35838 | - | - | turbidity | MIC | - | 13 µM
O=C(CCCCC(=O)Nc1cc(C2=NCCN2)cc(C2N=CCN2)c1)Nc1cc(C2=NCCN2)cc(C2=NCCN2)c1 | H37Rv | - | - | resazurin | inhibition | 6.25 µg/mL | 61%
C[C@@H]1CCC([C@@H](C)C(=O)OCCO)[C@@]23OO[C@@](C)(CCC12)O3 | H37Rv | - | - | agar | MIC | - | >12.5 µg/mL